The record followed here is article PMC10313052, “Filarial DAF-12 sense the host serum to resume iL3 development during infection” (PLOS Pathogens, 2023).

The target in this test is T1, BmaDAF-12 (Brugia malayi, UniProt A0A4E9F2L4, R841H).
T1 sequence (A0A4E9F2L4 639-880 R841H): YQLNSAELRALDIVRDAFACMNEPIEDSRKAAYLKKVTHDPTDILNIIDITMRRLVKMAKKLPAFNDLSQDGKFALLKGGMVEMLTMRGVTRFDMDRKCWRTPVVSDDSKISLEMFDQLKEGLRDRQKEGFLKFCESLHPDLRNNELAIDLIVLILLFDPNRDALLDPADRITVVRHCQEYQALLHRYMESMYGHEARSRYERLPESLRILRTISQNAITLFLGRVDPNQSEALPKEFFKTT
It counts as cell-based. The conditions noted are these: read-out: EC50 (logEC50 SE) (converted); NIH3T3, 24 h, technical triplicates, Fig 2.

By EC50 is commonly meant the concentration giving half of the maximal effect.

3β-hydroxy-5-cholestenoic acid: the EC50 is 241 nM.
